The values that follow are results of earlier work, collected in PubChem BioAssay AID977611.

For series [1], the target named is HIV-1 RNase H p15 with engineered E. coli loop. The series is described as follows: PubChem AID 977611. Conditions: PDB protein-ligand complexes, literature Kd; protein: HIV-1 RNase H p15 with engineered E. coli loop; PDB entry 3QIN.
Series [2] has as its target Epstein-Barr virus (EBV) dUTPase inactive mutant deleted of motif V. The series can be described thus: PubChem AID 977611. The conditions noted are these: PDB protein-ligand complexes, literature Kd; protein: Epstein-Barr virus (EBV) dUTPase inactive mutant deleted of motif V; PDB entry 2WE3.

Usually Kd stands for the concentration at which binding is half-saturated. Consider `COc1ccc(Cc2nc(C(=O)O)c(O)c(=O)[nH]2)cc1Br`, for which the Kd in series [1] is 0.136 µM. For `O=c1ccn([C@H]2C[C@H](O)[C@@H](COP(=O)(O)OP(=O)(O)OP(=O)(O)O)O2)c(=O)[nH]1`, in series [2], the Kd is 37 µM.
